The results in this text go back to PubChem BioAssay AID1986 (Sanford-Burnham Center for Chemical Genomics, 2009).

This is a selection; strong and weak results do not stand in their true shares. Calls of active or inactive are those of the source. Cut-off read from the data, not from the text of the source: active = inhibition mostly above about 52% (no sharp cut-off); inactive = mostly below about 76%.

A short description of the experiment: cell-free HIV fusion peptide-binding blockers – biochemical, uHTS, fluorescence dequenching, primary screen (AID 1986). Conditions: HIV Env-mediated cell-cell fusion, fluorescence reporter; at 20 µM; active compounds read high.
Consider `CCC1=CC2Cc3nc4ccc(Cl)cc4c(N)c3C(C1)C2` (stereo not drawn), for which the inhibition is inactive: 0.5%.

Regarding `O=P1(Nc2ccccn2)COc2ccccc2OC1`, the inhibition is inactive: 0.6%.

Regarding `CC(C)(C)C(=O)NC(Sc1ncccn1)C(Cl)(Cl)Cl` (stereo not drawn), the inhibition was inactive: 0.8%.

In the case of `Clc1n[nH]nc1-c1nn[nH][15n]1`, the inhibition was inactive: -2.2%.

Turning to `O=[As](O)(c1ccccc1Br)c1ccccc1Br`, the inhibition was inactive: -0.1%.

As for `CN(C(=O)Cc1ccc(Cl)c(Cl)c1)[C@@H]1CCCC[C@H]1N1CCCC1`, the inhibition is inactive: -0.3%.

For `CC(C)/C=N\N=C(\N)N[N+](=O)[O-]`, the inhibition is inactive: 0.4%.

On to `Cc1ccc(C(=O)OC2CN3CCC2CC3)cc1` (stereo not drawn), for which the inhibition was inactive: -1%.

As to `CC1CCC(C(C)C)C(OP(=O)(Nc2ccccn2)c2ccccc2)C1` (stereo not drawn), the inhibition is inactive: -0.6%.

For the molecule `Cc1nn(-c2ccccc2)c2c1P(=O)(N1CCOCC1)N(C)C(c1ccccc1)=N2` (stereo not drawn), the inhibition is inactive: 2.9%.

With `O=C(/C=C/c1ccccc1)OC1CN2CCC1CC2` (stereo not drawn), the inhibition is inactive: -0.5%.

With `CN(C)C1(CNC(=O)c2ccc(S(C)(=O)=O)cc2)CCCCC1`, the inhibition is inactive: -0.6%.

Take `O=P1(Nc2ncccn2)COc2ccccc2OC1`: the inhibition was inactive: 1.8%.

`O=[As](O)(c1cccs1)c1cccs1`: the inhibition was inactive: -0.9%.

With `Cc1ccc(OCC(=O)OC2CN3CCC2CC3)cc1` (stereo not drawn), the inhibition is inactive: 2.4%.

With `O=P1(Nc2ccc(Br)cn2)COc2ccccc2OC1`, the inhibition is inactive: 1.2%.

Regarding `Nc1cccc([As](=O)(O)c2ccccc2)c1`, the inhibition is inactive: -0.6%.

Consider `CS(=O)(=O)c1cc([N+](=O)[O-])c2no[n+]([O-])c2c1`, for which the inhibition is inactive: 6%.

Regarding `O=P(Nc1nccs1)(Oc1ccccc1)Oc1ccccc1`, the inhibition is inactive: -0.1%.

On to `O=P(Nc1nccs1)(c1ccccc1)c1nc2ccccc2s1` (stereo not drawn), for which the inhibition was inactive: -1.1%.

With `CCOP1(=S)c2c(C)nn(CCC#N)c2N=C(c2ccccc2F)N1C` (stereo not drawn), the inhibition was inactive: 2.5%.

In the case of `O=C(O)COc1ccc([As](=O)(O)O)cc1[N+](=O)[O-]`, the inhibition is inactive: 0.9%.

Consider `Nc1ccccc1[As](=O)(O)c1ccccc1`, for which the inhibition was inactive: -1.2%.

As for `NC(=O)Nc1ccc([As](=O)(O)O)cc1`, the inhibition was inactive: 0.7%.

For the molecule `O=[N+]([O-])c1ccc2c(c1)nnn2O`, the inhibition is inactive: -0.2%.

As to `CCOP1(=S)c2c(C)nn(CCC#N)c2N=C(c2ccc(F)cc2)N1C` (stereo not drawn), the inhibition was inactive: 0.8%.

With `CN(C(=O)Cc1ccccc1)[C@@H]1CC[C@]2(CCCO2)C[C@H]1N1CCCC1`, the inhibition is inactive: 2.5%.

For `CS(=O)(=O)c1ccc(Cl)c(NC(=O)COC(=O)C(O)(c2ccccc2)c2ccccc2)c1`, the inhibition is inactive: 0.6%.

For `O=[As](O)(O)c1cccnc1`, the inhibition is inactive: -1.4%.

As for `COc1cc(C(=O)NCC2(N3CCOCC3)CCCCC2)cc(Cl)c1OC(C)C`, the inhibition was inactive: -1.1%.

Regarding `O=C(OC1CN2CCC1CC2)c1ccc(Cl)cc1` (stereo not drawn), the inhibition was inactive: 0.7%.

As for `Cc1cccc(OCC(=O)OC2CN3CCC2CC3)c1` (stereo not drawn), the inhibition is inactive: 1.6%.

Take `O=[As](O)(c1cccc(O)c1)c1cccc(O)c1`: the inhibition is inactive: -1.7%.

`CCCOP(=S)(Nc1nc(N)cc(=O)[nH]1)OCCC`: the inhibition was inactive: 1.9%.

Turning to `Nc1cccc2c([As](=O)(O)O)cccc12`, the inhibition is inactive: 148%.

As to `Cc1ccc(NCCc2c([N+](=O)[O-])cc([N+](=O)[O-])cc2[N+](=O)[O-])cc1`, the inhibition was inactive: 35.2%.

For `CCOP(=O)(Nc1cccc2ccccc12)OCC`, the inhibition was inactive: -1.6%.

With `COc1cc(C2NCCC3(OCCO3)C2(C)C)cc(OC)c1OC` (stereo not drawn), the inhibition was inactive: 3.5%.
